Pooled drug test results. Numbers come from NIAID ChemDB, via PubChem.

All rows: tests in culture; species: Influenza A virus

a–b is a range or a potency band.

Nc1nccc2c1ncn2[C@@H]1C[C@H](CO)[C@@H](O)[C@H]1O ; measure: EC50 ; cell line: MDCK ; method: cytopathic effect ; result: >16 µg/mL
CC(C)CCCC(C)C1CCC2C3CC=C4CC(OC(=O)Nc5ccc(S(=O)(=O)O)c6ccccc56)CCC4(C)C3CCC12C ; measure: EC50 ; strain: Influenza A/Ishikawa/7/82 (H3N2) ; cell line: MDCK ; method: cytopathic effect ; result: 20 µM
Cc1cccc(C(=O)N[C@H]2CCN3[C@H](CCC[C@H]3C)C2)c1O ; measure: EC50 ; strain: H1N1 A/WSN/33 ; cell line: MDBK ; method: plaque count ; result: 8 µg/mL
Nc1ccc(S(=O)(=O)O)c2ccccc12 ; measure: EC50 ; strain: Influenza A/Ishikawa/7/82 (H3N2) ; cell line: MDCK ; method: cytopathic effect ; result: >200 µM
C/C=C1\[C@H](OC2O[C@H](CO)[C@@H](O)[C@H](O)[C@H]2O)OC=C(C(=O)O)[C@H]1CC(=O)OCCc1ccc(O)cc1 ; measure: EC50 ; strain: H3N2 ; cell line: MDCK ; method: cytopathic effect ; result: >100 µM
Cc1cn([C@@H]2C[C@@H](O)[C@H](CO)O2)c(=O)[nH]c1=O ; measure: EC50 ; cell line: MDCK ; result: >100 µM
CCC(CC)O[C@@H]1C=C(C(=O)O)C[C@H](N)[C@H]1NC(C)=O ; measure: EC50 ; strain: A/Victoria/3/75 ; cell line: MDCK ; method: plaque count ; result: 0.03 µM
CN1CCC2(C1)C1CC3CC(C1)CC2C3 ; measure: MIC ; strain: A/England/42/74 ; result: 0.1 µg/mL
NC(=O)c1nc(F)c[nH]c1=O ; measure: EC50 ; strain: H1N1 PR/8/34 ; cell line: MDCK ; method: plaque count ; result: 0.16 µg/mL
NC(=O)c1c[se]c([C@@H]2O[C@H](CO)[C@@H](O)[C@H]2O)n1 ; measure: EC50 ; strain: A/NWS/33 ; cell line: MDCK ; method: cytopathic effect ; result: 0.7 µg/mL
C/C=C1/[C@H](O[C@@H]2O[C@H](CO)[C@@H](O)[C@H](O)[C@H]2O)OC=C(C(=O)OC)[C@H]1CC(=O)OCCc1ccc(O)c(O)c1 ; measure: EC50 ; strain: H3N2 ; cell line: MDCK ; method: cytopathic effect ; result: >100 µM
CC(N)C12CC3CC(CC(C3)C1)C2 ; measure: EC50 ; strain: H1N1 A/PR/8/34 ; cell line: MDCK cells ; method: cytopathic effect ; result: 32.5 µM
C=CCO/N=C(\C#N)C(=O)NCC1=NOC(C(C)(C)C)C1 ; measure: EC50 ; strain: A/WSN/33 ; cell line: MDCK ; method: cytopathic effect ; result: 1–10 µg/mL
O=[N+]([O-])c1cc(C(F)(F)F)ccc1N1CC[N+]2(CC1)CC[N+]1(CCN(c3ccc(C(F)(F)F)cc3[N+](=O)[O-])CC1)CC2 ; measure: EC50 ; cell line: MDCK ; method: cytopathic effect ; result: >70 µg/mL
CC(=O)N[C@H]1[C@H]([C@H](O)[C@H](O)CO)OC(C(=O)O)=C[C@@H]1N ; measure: EC50 ; strain: H1N1 A/FM/1/47 ; cell line: MDCK ; method: plaque count ; result: 2.4 µM
O=[N+]([O-])c1c(Cl)ncnc1NN1CC[N+]2(CC1)CC[N+]1(CCN(Nc3ncnc(Cl)c3[N+](=O)[O-])CC1)CC2 ; measure: EC50 ; cell line: MDCK ; method: cytopathic effect ; result: >70 µg/mL
CC(=O)N[C@H]1[C@H]([C@H](O)[C@H](O)CO)OC(C(=O)O)=C[C@@H]1N=C(N)N ; measure: EC50 ; strain: H1N1 A/Brazil/11/78 ; cell line: MDCK ; result: 0.014 µM
Nc1ccn([C@@H]2C[C@@H](O)[C@H](CO)O2)c(=O)n1 ; measure: EC50 ; cell line: MDCK ; result: >100 µM
C[C@@H]1CCC[C@@H]2C[C@@H](NC(=O)c3cc4ccccc4cc3O)CCN21 ; measure: EC50 ; strain: H1N1 A/WSN/33 ; cell line: MDBK ; method: plaque count ; result: >20 µg/mL
CC(N)C12CC3CC(CC(C3)C1)C2 ; measure: EC50 ; strain: A/Brazil/11/78 (H1N1) ; cell line: MDCK ; method: plaque count ; result: 0.6 µM
C[C@@H]1CCC[C@@H]2C[C@@H](NC(=O)c3cc(Cl)cc(Cl)c3O)CCN21 ; measure: EC50 ; strain: H1N1 A/WSN/33 ; cell line: MDBK ; method: plaque count ; result: 10–20 µg/mL
CC(C)(C)C1CC(CNC(=O)/C(C#N)=N/OCc2cccnc2)=NO1 ; measure: EC50 ; strain: A/WSN/33 ; cell line: MDCK ; method: cytopathic effect ; result: >100 µg/mL
NC12CC3CC(CC(C3)C1)C2 ; measure: EC50 ; strain: B/Victoria/102/85 ; cell line: MDCK ; method: plaque count ; result: >30 µM
CC(C)CCCC(C)C1CCC2C3CC=C4CC(O)CCC4(C)C3CCC12C ; measure: EC50 ; strain: Influenza A/Ishikawa/7/82 (H3N2) ; cell line: MDCK ; method: cytopathic effect ; result: >200 µM
C#Cc1c(C(N)=O)ncn1[C@@H]1O[C@H](CO)[C@@H](O)[C@H]1O ; measure: EC50 ; strain: Ishikawa ; cell line: MDCK ; method: cytopathic effect ; result: 0.9 µg/mL
C[C@@H]1CCC[C@@H]2C[C@@H](NC(=O)c3ccccc3N)CCN21 ; measure: EC50 ; strain: H1N1 A/WSN/33 ; cell line: MDBK ; method: plaque count ; result: 5–10 µg/mL
Nc1nc(-c2ccc(Br)cc2Br)c(SCC(=O)Nc2ccccc2N)s1 ; measure: EC50 ; strain: H3N2 A/PR/8/34 ; cell line: MDCK cells ; method: cytopathic effect ; result: 0.37 µM
O=[N+]([O-])c1c(C2CCCCCC2)ncnc1N1CC[N+]2(CC1)CC[N+]1(CCN(c3ncnc(C4CCCCCC4)c3[N+](=O)[O-])CC1)CC2 ; measure: EC50 ; cell line: MDCK ; method: cytopathic effect ; result: >70 µg/mL
CO/N=C(\C#N)C(=O)NC(=O)OC(C)(C)C ; measure: EC50 ; strain: A/WSN/33 ; cell line: MDCK ; method: cytopathic effect ; result: >100 µg/mL
Nc1ccn([C@@H]2C[C@@H](O)[C@H](CO)O2)c(=O)n1 ; measure: EC50 ; cell line: MDCK ; result: >100 µM
C[N+]1(C)CCN(c2ncnc(Cl)c2[N+](=O)[O-])CC1 ; measure: EC50 ; cell line: MDCK ; method: cytopathic effect ; result: >70 µg/mL
Clc1ccc(-c2csc(N3N=C(c4cccs4)CC3c3ccc(Cl)cc3)n2)cc1 ; measure: EC50 ; strain: Influenza A/Ishikawa/7/82 (H3N2) ; cell line: MDCK ; method: cytopathic effect ; result: >200 µg/mL
N=C(N)c1ncn([C@@H]2O[C@H](CO)[C@@H](O)[C@H]2O)n1 ; measure: EC50 ; strain: Influenza A/Panama/2007/99 (H3N2) ; cell line: MDCK ; method: neutral red ; result: 16 µg/mL
Cc1ccccc1NC(=O)CSc1sc(N)nc1-c1ccc(Br)cc1Br ; measure: EC50 ; strain: H3N2 A/HK/7/87 ; cell line: MDCK cells ; method: cytopathic effect ; result: >195 µM
CC1(C)C[C@H](O)C[C@](C)(CNC(=O)c2cc(Cl)ccc2O)C1 ; measure: EC50 ; strain: H-1 ; method: plaque count ; result: 0.03 µg/mL
Nc1ncnc2c1ncn2[C@@H]1C[C@@H](O)[C@H](CO)O1 ; measure: EC50 ; cell line: MDCK ; result: >100 µM
C/C=C1\[C@H](OC2O[C@H](CO)[C@@H](O)[C@H](O)[C@H]2O)OC=C(C(=O)O)[C@H]1CC(=O)OCC(OCC)c1ccc(O)c(O)c1 ; measure: EC50 ; strain: H3N2 ; cell line: MDCK ; method: cytopathic effect ; result: >100 µM
C[C@@H]1CCC[C@@H]2C[C@@H](NC(=O)c3cc(F)ccc3O)CCN21 ; measure: EC50 ; strain: H1N1 A/WSN/33 ; cell line: MDBK ; method: plaque count ; result: 0.4–0.8 µg/mL
CCOC(=O)C1=C[C@@H](OC2CCCCC2)[C@H](NC(C)=O)[C@@H](N)C1 ; measure: EC50 ; strain: H3N2 A/HK/7/87 ; cell line: MDCK cells ; method: cytopathic effect ; result: 60 µM
CC(=O)N[C@H]1[C@H]([C@H](O)[C@H](O)CO)OC(C(=O)O)=C[C@@H]1N ; measure: EC50 ; strain: B/Victoria/102/85 ; cell line: MDCK ; method: plaque count ; result: 0.065 µM
O=C(CCCc1ccccc1)N1CC[N+]2(CC1)CC[N+]1(CCN(C(=O)CCCc3ccccc3)CC1)CC2 ; measure: EC50 ; cell line: MDCK ; method: cytopathic effect ; result: >70 µg/mL
NC12CC3CC(CC(C3)C1)C2 ; measure: MIC ; strain: A/University of Maryland/2/72 ; result: 0.05 µg/mL
Nc1nc(N2CC[N+]3(CC2)CC[N+]2(CCN(c4nc(N)[nH]c(=O)c4[N+](=O)[O-])CC2)CC3)c([N+](=O)[O-])c(=O)[nH]1 ; measure: EC50 ; cell line: MDCK ; method: cytopathic effect ; result: >70 µg/mL
CO/N=C(\C#N)C(=O)NCc1cccnc1 ; measure: EC50 ; strain: A/WSN/33 ; cell line: MDCK ; method: cytopathic effect ; result: >100 µg/mL

Again, the opening 6 rows:

compound | measure | strain | cell line | method | result
Nc1nccc2c1ncn2[C@@H]1C[C@H](CO)[C@@H](O)[C@H]1O | EC50 | - | MDCK | cytopathic effect | >16 µg/mL
CC(C)CCCC(C)C1CCC2C3CC=C4CC(OC(=O)Nc5ccc(S(=O)(=O)O)c6ccccc56)CCC4(C)C3CCC12C | EC50 | Influenza A/Ishikawa/7/82 (H3N2) | MDCK | cytopathic effect | 20 µM
Cc1cccc(C(=O)N[C@H]2CCN3[C@H](CCC[C@H]3C)C2)c1O | EC50 | H1N1 A/WSN/33 | MDBK | plaque count | 8 µg/mL
Nc1ccc(S(=O)(=O)O)c2ccccc12 | EC50 | Influenza A/Ishikawa/7/82 (H3N2) | MDCK | cytopathic effect | >200 µM
C/C=C1\[C@H](OC2O[C@H](CO)[C@@H](O)[C@H](O)[C@H]2O)OC=C(C(=O)O)[C@H]1CC(=O)OCCc1ccc(O)cc1 | EC50 | H3N2 | MDCK | cytopathic effect | >100 µM
Cc1cn([C@@H]2C[C@@H](O)[C@H](CO)O2)c(=O)[nH]c1=O | EC50 | - | MDCK | - | >100 µM

Conditions beyond the fields shown may differ between rows. ECn: concentration that inhibits the pathogen or its effect by n%. Blank or dashed fields: not listed here.